From patent publication US20150031020 come the findings set out here.

In this experiment the target is α-HL M113R/N139Q (HL-RQ) monomer, Staphylococcus aureus.

With HL-RQC-EcoExoIII-L1-H6, the result is “binds”.
